The record followed here is publication PMC12798060.

Sequences of proteins named here, by UniProt entry; tags and fusion partners are left off. A change or cut given only in a name is not applied to a line headed by its entry.
UniProt P76141: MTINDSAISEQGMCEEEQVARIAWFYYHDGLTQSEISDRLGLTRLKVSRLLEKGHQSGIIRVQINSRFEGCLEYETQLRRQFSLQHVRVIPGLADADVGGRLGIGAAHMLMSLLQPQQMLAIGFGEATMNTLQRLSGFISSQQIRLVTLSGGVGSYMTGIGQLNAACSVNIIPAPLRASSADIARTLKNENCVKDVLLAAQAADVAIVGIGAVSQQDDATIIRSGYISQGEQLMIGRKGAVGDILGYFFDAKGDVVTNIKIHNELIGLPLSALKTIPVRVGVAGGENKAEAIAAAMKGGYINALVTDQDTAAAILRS

This series has as its target LsrR (GST-LsrR) (UniProt P76141). The series can be described thus: EMSA. The note with it: 2-6 uM LsrR, 5 nM probe, complex abolished by unlabeled p-cysN; EMSA: Light Shift EMSA kit (binding buffer not stated), 4% native PAGE, 100 V, 4 C; recombinant protein; residues 1-317; protein details: GST; label: Cy5.5; probe letters rebuilt from the primers and the genome. A general note: Mobility shift assays separate free from complexed probe on a gel.

For at least one entry, the source does not settle the construct or the ends of the probe.

As for “AATCATCGAAGAGATGCTGGTTTCCACCACCAGTGAACGTCAGGGCCGCGTGATTGACCGCGACCAGGCGGGGTCTATGGAGCTGAAAAAACGTCAGGGGTATTTTTAAGATGAACACCGCACTTGCACAA (double strand) [p-cysN (cysN promoter, 131 bp)]”, the binding result is “binds”.
